Test results published in patent publication US7875604B2, “Compounds that inhibit HIV particle formation” (University of Virginia Patent Foundation, priority 2004, dated 2011).

Test system: U1 cells latently infected with HIV-1
Assay: U1 latency activation assay (TNF-α induced, supernatant reverse transcriptase)
Type: cell-based
Details: U1 cell assay, Table 8; ratio CC50 / IC50
Description: U1 cells were obtained from the AIDS Research and Reference Reagent Program and maintained under standard culture conditions in RPMI 1640 supplemented with 10% fetal bovine serum (heat inactivated), 2 mM L-glutamine, 100 U/mL penicillin and 100 μg/mL streptomycin. U1 cells are derived from the histocytic leukemia cell line U937, and contain an integrated copy of a cytokine and/or phorbol inducible provirus (HIV-1IIIB). Cultures were maintained in such a way as to ensure exponential growth of the populations. Addition of TNF-α to the cell culture induces HIV-1, so that inhibition of virus production indicates an inhibition of a post-integration function of the HIV-1 life cycle. This is where an inhibitor of Rev function would be expected to act. […]
At the time of the assay, cells were collected by centrifugation and counted by hemacytometer. If cell viability by Trypan Blue dye exclusion was less than 70% the assay was terminated. The cells were adjusted to 5×10^4 cells/mL and 100 μL placed in 96 well plates with 100 μL media containing a final concentration of 5 ng/mL TNF-α and the test compound. Cultures were incubated for 3 days and supernatants harvested. Compound toxicity was determined by MTS dye reduction. Virus expression was measured by supernatant reverse transcriptase activity.
Reverse transcriptase was assayed to measure virus particle release as described above for the PBMC assay.
Compounds were tested in the U1 latency assay using the maximum high-test concentration possible based on the supplied stocks which are listed in table 3. Compounds were tested using the maximum high-test concentration possible based on the supplied stocks. Compounds were prepared at a 2× high-test concentration by combining drug stock with tissue culture media at a ratio of 5 μL of drug to 995 μL of media. This 2× high-test sample was subsequently serially diluted in tissue culture media using 1/2 log dilutions. This series of 2× concentrated drug was subsequently diluted 1:1 by combining with an equal volume of cells in media in the 96-well plates used for the assay. Temacrazine a known inhibitor of HIV transcription was used as a control compound that is active in the post-integration part of the HIV life cycle.
Compounds were tested using the maximum high-test concentration possible based on the supplied stocks. Compounds were prepared at a 2× high-test concentration by combining drug stock with tissue culture media at a ratio of 5 μL of drug to 995 μL of media. This 2× high-test (HT) sample was subsequently serially diluted in tissue culture media using 1/2 log dilutions. This series of 2× concentrated drug was subsequently diluted 1:1 by combining with an equal volume of cells in media in the 96-well plates used for the assay.

| Structure (SMILES) | TI |
| --- | --- |
| Cc1n[nH]c2nc3ccc(Cl)cc3c(-c3ccccc3)c12 [Compound 111] | >29.4 |
| Cc1n[nH]c2nc3ccc(Br)cc3c(-c3ccccc3)c12 [Compound 112] | >46.3 |
| COc1cc2cc(C(=O)Nc3ccccc3)c(N)nc2cc1OC [Compound 113] | >2.74 |
| COc1cc2cc3c(=O)[nH]c(-c4ccc(C)cc4)nc3nc2cc1OC [Compound 114] | >5.21 |
| COc1ccc2nc3c(c(N)c2c1)CCCC3 [Compound 211] | 5.32 |
| N#Cc1c(C(F)(F)F)nc2ccc(F)cc2c1N [Compound 212] | 59.1 |
| Nc1c2c(nc3ccc([N+](=O)[O-])cc13)CCCC2=O [Compound 213] | 70.9 |
| C=CCc1c(C)nc2ccc(OC)cc2c1N [Compound 214] | >8.16 |
| COc1ccc(-c2c(C(C)=O)c(C)nc3sc(C(N)=O)c(N)c23)cc1 [Compound 311] | >45.5 |
| Cc1ccc2c(N)c(C(N)=O)sc2n1 [Compound 314] | >35.5 |
| Cc1nc2sc(C(N)=O)c(N)c2c(C)c1CC(=O)c1ccccc1 [Compound 315] | >100 |
| NC(=O)c1sc2nc(-c3cccnc3)ccc2c1N [Compound 316] | >3.21 |
| Cc1cc(C(F)(F)F)c2c(N)c(C(N)=O)sc2n1 [Compound 318] | >316 |
| CN1CCc2nc3sc(C(N)=O)c(N)c3cc2C1 [Compound 319] | >1.86 |
| COCc1cc(C)nc2sc(C(N)=O)c(N)c12 [Compound 320] | >144 |
| NC(=O)c1sc2nc3c(cc2c1N)CCCC3 [Compound 321] | >38.7 |
| NC(=O)c1sc2nc(-c3cccs3)cc(-c3ccc(F)cc3)c2c1N [Compound 322] | 1.97 |
| Cc1ccc(-c2cc(-c3ccccc3)nc3sc(C(N)=O)c(N)c23)cc1 [Compound 323] | 30.3 |
| NC(=O)c1sc2nc3c(cc2c1N)CCC3 [Compound 324] | >34.2 |
| CN(C)c1ccnc2sc(C(N)=O)c(N)c12 [Compound 325] | >267 |
| CCOC(=O)c1c2c(nc3sc(C(N)=O)c(N)c13)CCCC2 [Compound 327] | 109 |
| Cc1cc2c(N)c(C(N)=O)sc2nc1C [Compound 328] | 34.9 |

| Structure (SMILES) | TI |
| --- | --- |
| CCCc1ccc2c(N)c(C(N)=O)sc2n1 [Compound 329] | 28.8 |
| Cc1cc2c(N)c(C(N)=O)sc2nc1-c1ccc(F)cc1 [Compound 330] | >10.9 |
| CCc1c(C)nc2sc(C(=O)NCC(=O)O)c(N)c2c1C [Compound 331] | >1.14 |
| Cc1ccc(-c2cc(C(F)(F)F)c3c(N)c(C(N)=O)sc3n2)cc1 [Compound 332] | <0.30 |
| NC(=O)c1sc2nc(Cc3ccccc3)cc(C(F)(F)F)c2c1N [Compound 334] | >31.6 |
| COc1ccc(-c2cc(-c3ccccc3)nc3sc(C(N)=O)c(N)c23)cc1 [Compound 335] | 38.2 |
| CC1CCc2nc3sc(C(N)=O)c(N)c3cc2C1 (stereo not shown) [Compound 336] | >25.7 |
| NC(=O)c1sc2nc3ccccc3cc2c1N [Compound 337] | >31.3 |
| CCOC(=O)c1c(C)nc2sc(C(N)=O)c(N)c2c1-c1ccccc1 [Compound 338] | >14.3 |
| COc1ccc(-c2cc(-c3ccc(OC)cc3)c3c(N)c(C(N)=O)sc3n2)cc1 [Compound 339] | 29.9 |
| O=C(Nc1ccccc1)c1sc(Cl)nc1C(F)(F)F [Compound 412] | 3.10 |
| O=C(Nc1cccc(F)c1)c1sc(Cl)nc1C(F)(F)F [Compound 413] | 2.45 |
| O=C(Nc1cccc(C(F)(F)F)c1)c1sc(Cl)nc1C(F)(F)F [Compound 414] | 1.01 |
| O=C(Nc1ccccc1F)c1sc(Cl)nc1C(F)(F)F [Compound 415] | 1.37 |
| Cc1ccc(NC(=O)c2sc(Cl)nc2C)cc1C [Compound 416] | >97.8 |
| Cc1ccc(NC(=O)c2sc(Cl)nc2C)cc1 [Compound 417] | 32.0 |
| Cc1nc(Cl)sc1C(=O)Nc1ccc(C(F)(F)F)cc1 [Compound 418] | >34.4 |
| Cc1nc(Cl)sc1C(=O)Nc1ccc(C(C)(C)C)cc1 [Compound 420] | >11.0 |
| Cc1ccc(NC(=O)c2sc(Cl)nc2-c2ccccc2)cc1C [Compound 422] | >5.24 |
| Cc1ccc(NC(=O)c2sc(Cl)nc2-c2ccccc2)c(C)c1 [Compound 423] | >1.77 |
| COc1ccccc1NC(=O)c1cc(Cl)nnc1Cl [Compound 511] | 1.21 |
| O=C(c1cc(Cl)nnc1Cl)N1CCOCC1 [Compound 512] | >2.85 |

| Structure (SMILES) | TI |
| --- | --- |
| CN1CCN(C(=O)c2cc(Cl)nnc2Cl)CC1 [Compound 513] | >10.6 |
| O=C(NCc1ccccn1)c1cc(Cl)nnc1Cl [Compound 515] | >5.51 |
| COc1ccc(-c2cnc(S(C)(=O)=O)nc2)cc1 [Compound 615] | >6.30 |
| CSc1ncc2c(n1)[nH]c1ccccc12 [Compound 616] | >82.0 |
| COc1ccc(-c2cnc(OC(C)(C)C)nc2OC(C)(C)C)cc1 [Compound 618] | 2.93 |
| Cc1cccc(-c2nc(Nc3ccc(I)cc3)c3ccccc3n2)c1 [Compound 718] | 1.06 |
| Cc1ccc(Nc2ncnc3ccccc23)cc1C [Compound 719] | >43.4 |
| CCOC(=O)c1ccc(Nc2ncnc3ccccc23)cc1 [Compound 720] | >20.5 |
| FC(F)(F)c1cccc(Nc2nc(-c3ccccc3)nc3ccccc23)c1 [Compound 722] | 1.60 |
| COC(=O)c1ccc(Nc2nc(-c3ccccc3Cl)nc3ccccc23)cc1 [Compound 728] | 1.31 |
| Clc1ccccc1Nc1nc(-c2ccc(Br)cc2)nc2ccccc12 [Compound 731] | >45.5 |
| Brc1ccc(Nc2nc(-c3ccncc3)nc3ccccc23)cc1 [Compound 734] | >3.07 |
| Fc1ccccc1-c1nc(Nc2cccc(C(F)(F)F)c2)c2ccccc2n1 [Compound 748] | 3.14 |
| COc1ccc(Nc2nc(-c3ccccc3F)nc3ccccc23)cc1 [Compound 749] | 9.51 |
| COc1ccccc1Nc1nc(-c2ccccc2O)nc2ccccc12 [Compound 751] | >1.05 |
| Clc1ccc(-c2nc(Nc3ccc(Oc4ccccc4)cc3)c3ccccc3n2)cc1 [Compound 753] | 1.02 |
| CC(=O)Nc1ccc(Nc2nc(-c3ccccc3)nc3ccccc23)cc1 [Compound 754] | 4.09 |
| CC(=O)c1ccc(Nc2nc(-c3ccccc3)nc3ccccc23)cc1 [Compound 755] | >42.1 |
| Cc1nc(Oc2ccccc2)c2ccccc2n1 [Compound 756] | 29.9 |
| COc1ccc2cc3c(N)n[nH]c3nc2c1 [Compound 89246, 7-methoxy-1H-pyrazolo[3,4-b]quinolin-3-ylamine] | >169 |
